## Results of single-concentration screens

Data taken from ChEMBL document CHEMBL3988442, “University of Dundee, Small-Polar-MMV Screening Library” (2021).

A: 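Phenotypic screen: M. tuberculosis growth, cholesterol and DPPC medium, 4 days; the read-out is not stated. Tested at 50 µM. Higher reads as more growth inhibition (inferred: compounds with an IC50 in retests scored well above the rest). Of about 69,000 compounds tested this way, about 370 (0.54%) reached 50% or more in at least one test.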
B: 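Growth of Mycobacterium tuberculosis over 3 days (7H9 medium with glucose and tyloxapol); the read-out is not stated. Concentration: 50 µM. Direction is inferred from retests: higher values go with more growth inhibition. Of about 69,000 compounds tested this way, about 760 (1.1%) reached 50% or more in at least one test.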

Values are the deposited “Percent Effect”, in %.
The record does not define 0% and 100%; most values in the screen are far below 50% and negative numbers occur (in some assays of this library far below -100).
Many other results are left out here, so strong results are more common than in the screen.
Two or more numbers in one place are separate tests of the same structure; such repeats can differ widely.

{"compound": "Cc1cc(NC(C)c2csc(C)n2)n2nc(C)c(C)c2n1", "stereo": "configuration not stated", "B": 8.472}
{"compound": "CCNc1cc2c(nn1)CCN(C(=O)c1cc3ccccc3[nH]c1=O)C2", "A": -5.39}
{"compound": "Cc1nn(C)cc1S(=O)(=O)NCC(c1ccccc1Cl)N1CCCC1", "stereo": "configuration not stated", "A": "5.794 & 0.3925"}
{"compound": "CN(Cc1ccc(N(C)C)cc1)C(=O)CSc1ccc(Br)cc1", "B": -13.8}
{"compound": "Cc1ccc(N2CCN(c3ccccc3C)CC2C)nn1", "stereo": "configuration not stated", "B": "39.91 & 11.41"}
{"compound": "Cc1cc(Cc2ccc(F)cc2)cc(C2CCCNC2)n1", "stereo": "configuration not stated", "B": 12.07}
{"compound": "Cc1cc(=O)[nH]c(SC(C)C(=O)N2CCC(c3ncc[nH]3)CC2)n1", "stereo": "configuration not stated", "B": 5.456}
{"compound": "CC(=O)N1CCCC1c1nnn2cc(-c3ccncc3)ccc12.O=C(O)C(F)(F)F", "stereo": "configuration not stated", "A": "77.15 & -7.512"}
{"compound": "Cc1nsc(NC2CCOC3(CCCC3)C2)n1", "stereo": "configuration not stated", "A": 18.7}
{"compound": "Cc1ccc(C(=O)N2CCCN(C)c3ccc(F)cc32)o1", "A": -5.557, "B": -13.77}
{"compound": "CC(=O)c1ccc(C(=O)Nc2ccnc(N(C)C)n2)cc1", "A": 54.97}
{"compound": "Cc1ccc(OCCN2CCC(c3ccnn3CCO)CC2)cc1", "B": 4.483}
{"compound": "COc1ccc(C2CCCN2c2cnc3ccccc3n2)c(OC)c1", "stereo": "configuration not stated", "B": 6.461}
{"compound": "Cc1cccc(NC(=O)C2(n3cnnn3)CCCCC2)n1", "B": 26.41}
{"compound": "O=C(Nc1cccnc1)N1CCC(n2ccc(C(F)(F)F)n2)CC1", "B": "52.72 & 39.35"}
{"compound": "COc1ccccc1-c1ncc(CN2C[C@@H](N(C)C)[C@H](C(C)C)C2)s1", "B": 73.71}
{"compound": "O=C(Nc1ccc(-n2cccn2)cc1)N1CCC(O)C1", "stereo": "configuration not stated", "A": -21.81, "B": -12.15}
{"compound": "Cc1nn(C)c2c(NCc3ccc(F)cc3)nc(C3CC3)nc12", "B": 44.32}
{"compound": "CNC(=O)c1ccc(CNC(=O)c2ccc(Cl)cc2F)cc1", "B": -14.18}
{"compound": "O=C(c1cnc(Nc2ccccc2)nc1)N1CCS(=O)(=O)CC1", "B": 11.02}
{"compound": "CC(C)CCNc1nnc(C(C)C)s1", "A": 44.14, "B": 9.35}
{"compound": "O=C(CCc1cccc(F)c1F)N1CCN(Cc2ccco2)CC1", "B": 51.96}
{"compound": "CCc1ccccc1NC(=O)CCc1cnn(C)c1", "A": -23.51, "B": -16.53}
{"compound": "CCc1c(C)sc(NC(=O)CN2CCN(CC)CC2)c1C(=O)OC", "A": 73.32, "B": "73.38 & 81.48"}
{"compound": "O=C1C(n2nnc(-c3cccs3)n2)CCN1CC(F)(F)F", "stereo": "configuration not stated", "A": 13.76, "B": 38.14}
{"compound": "COC(=O)C(NC(=O)c1ccc(N(C)C)nc1)c1ccccc1", "stereo": "configuration not stated", "A": 56, "B": "44.87 & 55.96"}

For reference, 2 entries once more:

- Cc1nsc(NC2CCOC3(CCCC3)C2)n1 (configuration not stated) | A: 18.7%
- CC(=O)N1CCCC1c1nnn2cc(-c3ccncc3)ccc12.O=C(O)C(F)(F)F (configuration not stated) | A: 77.15% & -7.512%